“And” between values parts separate entries of the source, which are not always exact repeats. Identical values can stand only once. The list shows a part of the results, in another mix than the full data. The source made the active and inactive calls. Rule as the data show it: active = % elongation below about 90%; inactive = the rest, inconclusive results apart.
molecular target: Genome polyprotein (Poliovirus type 1 (strain Mahoney)) (UniProt P03300); assay: inhibitors of poliovirus polymerase RNA elongation – biochemical, fluorescence polarization, total intensity, primary screen (AID 588519); conditions: stronger effect = lower value, compound at 16.7 µg/mL

SMILES | % elongation
Cc1cc(NC2=NC3C(C(=O)N(C)C(=O)N3C)N2C)n(-c2ccccc2)n1 (centres undefined) | inactive: 103%
O=P1(Nc2nncs2)C=C(c2ccccc2)SC(c2ccccc2)=C1 | inactive: 91%
O=P1(Nc2nc3ccc(Cl)cc3s2)COc2ccccc2O1 (centres undefined) | inactive: 99%
O=C(OCCN1CCN(CCOCc2ccccc2)CC1)C(O)(c1ccccc1)c1ccccc1 | inactive: 97%
O=C(OCC1CN(Cc2ccccc2)CCO1)C(O)(c1ccccc1)c1ccccc1 (centres undefined) | inactive: 106%
CC1CCC(C(C)C)C(OP(=O)(Nc2nccs2)c2ccccc2)C1 (centres undefined) | inactive: 103%
COc1cc2c(cc1NP(C)(=O)Oc1ccccc1)oc1ccccc12 (centres undefined) | inactive: 104%
COC(=O)c1cc2c(s1)N=C(c1ccccc1)N(C)P2(=O)N1CCOCC1 (centres undefined) | inactive: 102%
Nc1nonc1OCc1nonc1COc1nonc1N | inactive: 103%
CC(=O)OC1(C#N)CN2CCC1CC2 (centres undefined) | inactive: 96%
CC(=O)OC1CN2CCC1C(c1ccccc1)C2 (centres undefined) | inactive: 108%
O=P(Nc1nccs1)(c1ccccc1)c1ccccc1 | inactive: 103%
C/C1=C2N=C(/C=C3N=C(/C(C)=C4\[N-][C@@](C)([C@@H]5N=C1[C@](C)(CCC(=O)NC[C@@H](C)OP(=O)([O-])O[C@H]1[C@@H](O)[C@@H](n6cnc7cc(C)c(C)cc76)O[C@@H]1CO)[C@H]5CC(N)=O)[C@@](C)(CC(N)=O)[C@@H]4CCC(N)=O)[C@@](C)(CC(N)=O)[C@@H]\3CCC(N)=O)C(C)(C)[C@@H]/2CCC(N)=O.[C-]#N.[Co+3] | active: 55%
Cc1ccccc1NP(C)(=O)Nc1ccccc1C | inactive: 102%
CCc1ccc(OP(C)(=O)Nc2cccnc2)cc1 (centres undefined) | inactive: 109%
OCCSCCO | inactive: 99%
CP(=O)(Nc1ccc(Cl)cc1)Oc1ccc(F)cc1 (centres undefined) | inactive: 102%
O=C(COC(=O)C(O)(c1ccccc1)c1ccccc1)N1CCCCC1 | inactive: 98%
CCOP(=Nc1nc2ccccc2n2nnnc12)(OCC)OCC | inactive: 101%
CN(C(=O)Cc1ccc(Cl)c(Cl)c1)[C@H]1CCCC[C@@H]1N1CCCC1 | inactive: 102% and inactive: 104%
CCOP(OCC)N1CCOCC1 | inactive: 100%
CP(=O)(Nc1ccccn1)Oc1ccccc1 (centres undefined) | inactive: 102%
O=P1(Nc2nccs2)CC=CC1 | inactive: 100%
CN(C)P1(=O)Nc2ccccc2S1 (centres undefined) | inactive: 110%
O=C(OC1CN2CCC1CC2)C12CC3CC(CC(C3)C1)C2 (centres undefined) | inactive: 102%
CC1=Nc2ccc(C(F)(F)F)cc2C1(C)C | inactive: 101%
COP1(=S)N=C2c3ccccc3CN2c2cc(N(C)C)ccc21 (centres undefined) | inactive: 102%

SMILES | % elongation
Cc1cc(C)cc(OP(C)(=O)NCc2ccccc2)c1 (centres undefined) | inactive: 103%
Nc1nonc1OCCOc1nonc1N | inactive: 101%
O=C(O)CCC(=O)N=S(c1ccccc1)c1ccccc1.O=[N+]([O-])c1cc([N+](=O)[O-])c(O)c([N+](=O)[O-])c1 | inactive: 98%
COc1ccccc1OP(C)(=O)Nc1ccccc1 (centres undefined) | inactive: 100%
CCN1C(=O)N(c2ccccc2)P(=S)(OC)c2cc3c(cc21)OCCO3 (centres undefined) | inactive: 98%
CP(=O)(Nc1ccc(Cl)cc1)Oc1ccccc1 (centres undefined) | inactive: 100%
CP(=O)(NC(=O)Nc1ccccc1)Oc1ccccc1 (centres undefined) | inactive: 103%
COP1(=S)c2c(C)nn(-c3ccccc3)c2N=C(c2ccccc2)N1C1CC1 (centres undefined) | inactive: 101%
CCn1cccc/c1=N\P1(=S)OCCO1 | inactive: 104%
Cc1cccc(NP(C)(=O)Oc2ccccc2)c1 (centres undefined) | inactive: 97%
CCOC(=O)c1ccc(NP(C)(=O)Oc2ccc(OC)cc2)cc1 (centres undefined) | inactive: 103%
Nc1nonc1-c1no[n+]([O-])c1-c1nonc1N | inactive: 94%
O=P1(Nc2ccccn2)COc2ccccc2OC1 | inactive: 104%
Cc1nn(CCC#N)c2c1P(=O)(Nc1ccccc1Cl)N(C)C(c1ccc(F)cc1)=N2 (centres undefined) | inactive: 102%
CP(=O)(N1CCOCC1)N1CCOCC1 | inactive: 106%
Cc1nn(-c2ccccc2)c2c1P(=O)(N1CCOCC1)N(C)C(c1ccccc1)=N2 (centres undefined) | inactive: 104%
Cc1ccc(C(=O)OC2CN3CCC2CC3)cc1 (centres undefined) | inactive: 109%
CC1(C)COP(=S)(N(C2=NCCC2)c2ccccc2)OC1 | inactive: 99%
Cc1cc(C)cc(OP(C)(=O)Nc2ccc(OC(C)C)cc2)c1 (centres undefined) | inactive: 101%
CCSP(=O)(c1ccccc1)c1ccccc1 | inactive: 99%
NC(=O)COC(=O)C1(O)c2ccccc2-c2ccccc21 | inactive: 102%
CCOP1(=S)c2c(C)nn(CCC#N)c2N=C(c2ccc(F)cc2)N1C (centres undefined) | inactive: 100%
NC(=O)Nc1ccc([As](=O)(O)O)cc1 | inactive: 100%
O=P1(Nc2nc3ccc(Cl)cc3s2)COc2ccccc2OC1 | inactive: 101%
Cc1cccc(OCC(=O)OC2CN3CCC2CC3)c1 (centres undefined) | inactive: 101%
COc1cc(-n2cnnn2)ccc1-n1cnnn1 | inactive: 105%
O=C(OC1CN2CCC1CC2)c1ccc(Cl)cc1 (centres undefined) | inactive: 103%
